Anti-infective test results gathered from many reports (values: NIAID ChemDB through PubChem).

Common to all: growth or infection tests; agent: Mycobacterium tuberculosis

Conditions beyond the fields shown may differ between rows. Percent inhibition refers to the dose given; in toxicity tests it is the harm to the cells. ECn: concentration that inhibits the pathogen or its effect by n%. A number after MIC or MFC names an inhibition level or a share of isolates. MIC bound comes from a single tested concentration.

Nc1ccc2nc[nH]c(=O)c2c1 ; strain: H37Rv ; measure: MIC ; value: >100 µg/mL
CCCCCC(C)NCCNCc1ccccc1Sc1ccccc1CO ; measure: MIC ; value: 50 µM
CC(CCc1ccccc1)NCCNC(C)Cc1c[nH]c2ccccc12 ; measure: MIC ; value: 50 µM
O=c1c2ccccc2c(=O)c2c1ccc1[nH]c3ccccc3sc12 ; method: BACTEC ; strain: H37Rv ; measure: inhibition ; dose: 12.5 µg/mL ; value: 11%
CCOc1ccccc1CNCCNCCc1cc(OC)ccc1OC ; measure: MIC ; value: 50 µM
CCC[CH2][Sn]([Br])([I])[CH2]CCC.c1cnc2c(c1)ccc1cccnc12 ; method: BACTEC ; strain: H37Rv ; measure: MIC ; value: 3.13 µg/mL
COc1ccc(CNCCNCCNc2ccccc2)c(OC)c1 ; measure: MIC ; value: 50 µM
Cc1cccc2c1NC(=O)C2=O ; strain: H37Rv ; measure: MIC ; value: 100 µg/mL
Oc1ccc(CCNCCNCc2ccccc2)cc1 ; measure: MIC ; value: 50 µM
CO[C@H]1/C=C/O[C@@]2(C)Oc3c(C)c(O)c4c(O)c(c(/C=N/N5CCN(C/C=C/c6ccccc6)CC5)c(O)c4c3C2=O)NC(=O)/C(C)=C\C=C\[C@H](C)[C@H](O)[C@@H](C)[C@@H](O)[C@@H](C)[C@H](OC(C)=O)[C@@H]1C ; strain: 33 (rifampin-resistant) ; measure: MIC ; value: 0.1 µg/mL
CC(=O)Nc1ccc(N=Nc2ccc(O)c3ncccc23)cc1.Cl ; strain: H37Rv ; measure: MIC ; value: >100 µg/mL
C=CCCNC(=S)[S-].[Na+] ; method: BACTEC ; strain: H37Rv ; measure: inhibition ; dose: 128 µg/mL ; value: 100%
C[C@H]1C[C@H](N)CN1c1cc2c(cc1F)c(=O)c(C(=O)O)cn2-c1ccc(F)cc1F ; strain: ATCC 35820 ; measure: MBC ; value: 4 µg/mL
c1ccc(NNc2ccccc2)cc1 ; strain: H37Rv ; measure: MIC ; value: >100 µg/mL
Nc1cc2nc3ccccc3sc-2cc1=O ; method: BACTEC ; strain: H37Rv ; measure: MIC bound ; value: ≤12.5 µg/mL
CCOC(=O)Nc1cc(N/N=C/c2ccccc2)c2[nH]c(SCc3ccccc3)nc2n1 ; strain: H37Rv ; measure: EC50 ; value: <12.5 µg/mL
NC1CCN(c2nc3c(cc2F)c(=O)c(C(=O)O)cn3-c2ccc(F)cc2F)C1 ; strain: ATCC 35820 ; measure: MIC ; value: 4 µg/mL
CCOCCOc1ccc(C(C)(C)C)cc1 ; strain: H37Rv ; measure: MIC ; value: 100 µg/mL
OCc1ccccc1Sc1ccccc1CNCCNCC1(O)CCCCC1 ; measure: MIC ; value: 50 µM
O=[N+]([O-])c1cccc(C=NCC(O)CN=Cc2cccc([N+](=O)[O-])c2)c1 ; strain: H37Rv ; measure: MIC ; value: >100 µg/mL
CO[C@H]1/C=C/O[C@@]2(C)Oc3c(C)c(O)c4c(=O)c(c5oc6cc(N7CCN(CC(C)C)CC7)cc(=O)c6nc5c4c3=C2O)NC(=O)/C(C)=C\C=C\[C@H](C)[C@H](O)[C@@H](C)[C@@H](O)[C@@H](C)[C@H](OC(C)=O)[C@@H]1C ; strain: TN659 ; measure: MIC ; value: 8 µg/mL
COC[C@H](NCCNC[C@]1(C)CCC[C@]2(C)c3ccc(C(C)C)cc3CC[C@@H]12)[C@@H](O)c1ccccc1 ; measure: MIC ; value: 50 µM
c1cc(NCCN[C@H]2C[C@@H]3CC[C@H]2C3)c2cccnc2c1 ; measure: MIC ; value: >50 µM
O=C(O)C(c1ccccc1)(c1ccccc1)c1ccccc1 ; strain: H37Rv ; measure: MIC ; value: >100 µg/mL
CC(C)c1ccc2c(c1)CC[C@H]1[C@](C)(CNCCNC[C@@H](C)O)CCC[C@]21C ; measure: MIC ; value: 50 µM
NC1CCN(c2c(F)cc3c(=O)c(C(=O)O)cn(C4CC4)c3c2Cl)C1 ; strain: ATCC 35826 ; measure: MBC ; value: 0.125 µg/mL
CCCCOCCN1CCN(CCCN2c3ccccc3Sc3ccc(C(F)(F)F)cc32)CC1.Cl.Cl ; method: BACTEC ; strain: H37Rv ; measure: MIC ; value: 6.25 µg/mL
CCCCCCCCCCCNCCNCCCCO ; measure: MIC ; value: 50 µM
CCCCNC(=S)NNC(=O)c1ccncc1 ; cells: VERO ; strain: H37Rv ; measure: MIC ; value: 3.13 µg/mL
Nc1ncccc1/C=C/C(=O)c1cc2ccccc2cc1O ; strain: H37Rv ; measure: EC50 ; value: >12.5 µg/mL
COC(=O)C(NC(=O)c1ccc(N)cc1)c1ccccc1 ; strain: H37Rv ; measure: MIC ; value: >100 µg/mL
CC[C@H]1OC(=O)[C@H](C)[C@@H](O[C@H]2C[C@@](C)(OC)[C@@H](O)[C@H](C)O2)[C@H](C)[C@@H](O[C@@H]2O[C@H](C)C[C@H](N(C)C)[C@H]2O)[C@](C)(OC)C[C@@H](C)C(=O)[C@H](C)[C@@H](O)[C@]1(C)O ; strain: DRUG-SUS ; measure: MIC90 ; value: >8 µg/mL
CC1CCCC(NCCNCC23CC4CC(CC(C4)C2)C3)C1C ; measure: MIC ; value: 9.4 µM
O=C(C[n+]1ccccc1)c1ccc(O)c(I)c1.[I-] ; strain: H37Rv ; measure: MIC ; value: >100 µg/mL
CC(CCc1ccccc1)NCCNC(C)Cc1c[nH]c2ccccc12 ; measure: MIC ; value: 50 µM
C[C@@H]1CN(c2c(F)c(N)c3c(=O)c(C(=O)O)cn(C4CC4)c3c2F)C[C@H](C)N1 ; strain: ATCC 35826 ; measure: MBC ; value: 0.06 µg/mL
Cl.NCc1cccc2ccccc12 ; strain: H37Rv ; measure: MIC ; value: 250 µg/mL
CCOC(=O)Nc1cc2nc(C)c(-c3ccccc3)nc2c(N)n1 ; strain: H37Rv ; measure: EC50 ; value: >12.5 µg/mL
Cc1cccc(Sc2ccccc2N)c1 ; strain: H37Rv ; measure: MIC ; value: 25 µg/mL
CC(C)C1C(=O)C(C(=O)NCNC(C(=O)O)[C@H](C)O)=C(O)C2(O)C(=O)C3=C(O)c4c(O)cccc4[C@@](C)(O)[C@H]3C[C@@H]12 ; method: BACTEC ; strain: H37Rv ; measure: MIC bound ; value: >12.5 µg/mL
Cc1nc2ccc(-n3c(C)ccc3C)cc2nc1C ; strain: H37Rv ; measure: MIC ; value: 100 µg/mL
COc1ccc(C2Oc3cc(OC)cc(OC)c3C(=O)C2Br)cc1 ; measure: inhibition ; dose: 12.5 µg/mL ; value: 0%
O=C(O)c1cc(Br)cc2c1oc1ccccc12 ; strain: H37Rv ; measure: MIC ; value: 100 µg/mL
CCOC(=O)Nc1cc(NCCc2ccc(S(=O)(=O)N(CC)CC)cc2)c2ncc(C)nc2n1 ; strain: H37Rv ; measure: EC50 ; value: >12.5 µg/mL
COC(=O)C[C@H]1C(C)(C)C(=O)[C@@H]2CC3=C4CC(=O)O[C@@H](c5ccoc5)[C@]4(C)CC[C@@H]3[C@@]1(C)C2=O ; method: BACTEC ; strain: H37Rv ; measure: inhibition ; dose: 12.5 µg/mL ; value: 0%
NCC[C@H](O)C(=O)N[C@@H]1C[C@H](N)[C@@H](O[C@H]2O[C@H](CN)[C@@H](O)[C@H](O)[C@H]2O)[C@H](O)[C@H]1O[C@H]1O[C@H](CO)[C@@H](O)[C@H](N)[C@H]1O ; method: broth dilution / resazurin ; strain: MDR19 ; measure: MIC ; value: 1 µg/mL
C[C@@H]1[C@H]2C[C@@H](C[C@H]1NCCN[C@@H](C)C1CCCCC1)C2(C)C ; measure: MIC ; value: 25 µM
C[C@@H](O)[C@H](NC(=O)OCc1ccccc1)C(=O)N[C@@H](CO)C(=O)NN ; method: BACTEC ; strain: H37Rv ; measure: MIC bound ; value: >12.8 µg/mL
COc1ccc(CNCCNCCNc2ccccc2)c(OC)c1 ; measure: MIC ; value: 50 µM
CCCCN(C=O)CCCC ; strain: H37Rv ; measure: MIC ; value: >100 µg/mL
CC(CCc1ccccc1)NCCNC[C@]1(C)CCC[C@]2(C)c3ccc(C(C)C)cc3CC[C@@H]12 ; measure: MIC ; value: 12.5 µM
COc1cc(C(=O)NNC(C)C)cc(OC)c1OC ; method: BACTEC ; strain: H37Rv ; measure: MIC bound ; value: >12.5 µg/mL
COc1ccccc1/C=C/C(=O)c1ccccc1O ; strain: H37Rv ; measure: EC50 ; value: >12.5 µg/mL
S=c1[nH]nc2scnn12 ; method: BACTEC ; strain: H37Rv ; measure: MIC ; value: ≥128 µg/mL
CCCCCCCCCCCNCCN[C@@H]1C[C@@H]2C[C@H]([C@H]1C)C2(C)C ; measure: MIC ; value: 25 µM
Nc1ccc(S(=O)(=O)c2ccc(Cl)cc2)c(N)c1 ; strain: H37Rv ; measure: MIC ; value: 50 µg/mL
Nc1ncccc1/C=C/C(=O)c1ccc2c(c1)-c1ccccc1C2 ; measure: inhibition ; dose: 12.5 µg/mL ; value: 53%
CC(C)(C)NNC(=O)/C(=C/c1ccc([N+](=O)[O-])cc1)NC(=O)c1ccccc1 ; method: BACTEC ; strain: H37Rv ; measure: MIC bound ; value: >12.5 µg/mL
CCOC(=O)Nc1cc(NC(C)C(O)COc2ccccc2)c([N+](=O)[O-])c(N)n1 ; strain: H37Rv ; measure: EC50 ; value: >12.5 µg/mL
Cc1cc2c(cc1C)[n+](=O)c(C(=O)C/C(=N\OCCCc1ccccc1)C(=O)Nc1cc(Cl)ccc1Cl)c(C)n2[O-] ; method: BACTEC ; strain: H37Rv ; measure: MIC bound ; value: >12.5 µg/mL
Brc1ccc2oc3ccccc3c2c1 ; strain: H37Rv ; measure: MIC ; value: >100 µg/mL
C=C1C(=O)O[C@@H]2/C=C(/CO)CC/C=C(/CO)C[C@@H](OC(=O)C(C)C)[C@@H]12 ; method: BACTEC ; strain: H37Rv ; measure: MIC bound ; value: >12.5 µg/mL
CO[C@H]1/C=C/O[C@@]2(C)Oc3c(C)c(O)c4c(=O)c(c5oc6cc(N7CCN(C(C)C)CC7)cc(=O)c6nc5c4c3=C2O)NC(=O)/C(C)=C\C=C\[C@H](C)[C@H](O)[C@@H](C)[C@@H](O)[C@@H](C)[C@H](OC(C)=O)[C@@H]1C ; strain: 2749 (rifampin-sensitive) ; measure: MBC ; value: 0.1 µg/mL
CC(C)c1ccc(O)c(O)c(=O)c1 ; method: BACTEC ; strain: H37Rv ; measure: MIC ; value: 32 µg/mL
CCOC(=O)Nc1cc2[nH]c(-c3ccccc3)nc2c(N)n1 ; strain: H37Rv ; measure: EC50 ; value: >12.5 µg/mL
N#C[B][n+]1ccc(C(=O)NNCC(F)(F)F)cc1 ; method: BACTEC ; measure: inhibition ; dose: 0.5 µM ; value: 0%
O=C(Nc1ccccn1)c1cccnc1 ; strain: H37Rv ; measure: MIC ; value: 100 µg/mL
Cc1cccc(C)c1NCC(=O)NN ; method: BACTEC ; strain: H37Rv ; measure: MIC ; value: ≥12.5 µg/mL
CCCC(=O)c1cccnc1 ; strain: H37Rv ; measure: MIC ; value: >100 µg/mL
Cc1ccc(NC(=O)Nc2cccc3ccccc23)cc1Cl ; method: BACTEC ; strain: H37Rv ; measure: MIC bound ; value: >12.5 µg/mL
CCC(C)(C)NCCNCC(c1ccccc1)c1ccccc1 ; measure: MIC ; value: 12.5 µM
O=C1C(Cl)=C(Nc2ccc3c(c2NC2=C(Cl)C(=O)c4ccccc4C2=O)C(=O)c2ccccc2C3=O)C(=O)c2ccccc21 ; method: BACTEC ; strain: H37Rv ; measure: MIC bound ; value: ≤12.5 µg/mL
CC(=O)Nc1cc(Cl)c([N+](=O)[O-])c2cccnc12 ; strain: H37Rv ; measure: MIC ; value: 100 µg/mL
Cc1ccc(/C=C2\CN(C)CC3=C2NC(=S)NC3c2ccc(C)cc2)cc1 ; method: BACTEC ; strain: H37Rv ; measure: MIC bound ; value: >12.5 µg/mL
NC[C@H]1O[C@H](O[C@H]2[C@H](O)[C@@H](O[C@H]3O[C@H](CO)[C@@H](O)[C@H](N)[C@H]3O)[C@H](N)C[C@@H]2N)[C@H](O)[C@@H](O)[C@@H]1O ; strain: TN3806 (W1) ; measure: MIC ; value: >256 µg/mL

Repeating the final 9 entries:

{"smiles": "O=C(Nc1ccccn1)c1cccnc1", "strain": "H37Rv", "measure": "MIC", "value": "100 µg/mL"}
{"smiles": "Cc1cccc(C)c1NCC(=O)NN", "method": "BACTEC", "strain": "H37Rv", "measure": "MIC", "value": "≥12.5 µg/mL"}
{"smiles": "CCCC(=O)c1cccnc1", "strain": "H37Rv", "measure": "MIC", "value": ">100 µg/mL"}
{"smiles": "Cc1ccc(NC(=O)Nc2cccc3ccccc23)cc1Cl", "method": "BACTEC", "strain": "H37Rv", "measure": "MIC bound", "value": ">12.5 µg/mL"}
{"smiles": "CCC(C)(C)NCCNCC(c1ccccc1)c1ccccc1", "measure": "MIC", "value": "12.5 µM"}
{"smiles": "O=C1C(Cl)=C(Nc2ccc3c(c2NC2=C(Cl)C(=O)c4ccccc4C2=O)C(=O)c2ccccc2C3=O)C(=O)c2ccccc21", "method": "BACTEC", "strain": "H37Rv", "measure": "MIC bound", "value": "≤12.5 µg/mL"}
{"smiles": "CC(=O)Nc1cc(Cl)c([N+](=O)[O-])c2cccnc12", "strain": "H37Rv", "measure": "MIC", "value": "100 µg/mL"}
{"smiles": "Cc1ccc(/C=C2\\CN(C)CC3=C2NC(=S)NC3c2ccc(C)cc2)cc1", "method": "BACTEC", "strain": "H37Rv", "measure": "MIC bound", "value": ">12.5 µg/mL"}
{"smiles": "NC[C@H]1O[C@H](O[C@H]2[C@H](O)[C@@H](O[C@H]3O[C@H](CO)[C@@H](O)[C@H](N)[C@H]3O)[C@H](N)C[C@@H]2N)[C@H](O)[C@@H](O)[C@@H]1O", "strain": "TN3806 (W1)", "measure": "MIC", "value": ">256 µg/mL"}